Experimental data: PubChem BioAssay AID624099 (ICCB-Longwood, 2012)

Aim: 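Host factors E2 relies on to silence an HPV18 LCR reporter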 (primary screen)
Cells: human C33A cervical carcinoma cells (HPV-negative) stably expressing BPV1 E2 and an HPV18 LCR luciferase reporter
Knock-down reagent: siRNA pool against human genes, 40 nM
Duration: 72 h
Measurement: 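HPV18 LCR reporter light per well, converted to plate-wise z-scores that exclude control wells, and averaged over triplicate plates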
Direction: mean z-score and z-score: higher = stronger reporter signal, weaker E2 silencing
Call rule: 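Mean z ≥ 2 together with z ≥ 2 in two or more of the three replicates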
Here is an unselected part of about 21,000 reagents. Of all reagents, 497 (2.4%) are marked active. 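Higher z means weaker E2 silencing; only reporter increases were scored, and knock-downs that hurt cell survival may mask genuine repressor factors.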

gene symbol | mean z-score | z-score, replicate A | z-score, replicate B | z-score, replicate C | activity call
PCK1 | -2 | -1.9 | -2.19 | -1.91 | inactive
CCDC8 | -1.14 | -0.88 | -1.25 | -1.28 | inactive
SERHL | 0.9 | 0.97 | 0.55 | 1.19 | inactive
LOC388227 (retired record) | -0.78 | -0.94 | -0.84 | -0.56 | inactive
LOC284623 (retired record) | -0.11 | 0.18 | 0.01 | -0.52 | inactive
LOC401883 (retired record) | -1.29 | -1.43 | -1.04 | -1.4 | inactive
FGF8 | -0.1 | -0.31 | -0.01 | 0.02 | inactive
HTR1E | -1.05 | -0.84 | -1.13 | -1.19 | inactive
EDN2 | 0.53 | 0.79 | 0.46 | 0.33 | inactive

The list goes on (2 carried over from the part before).
gene symbol | mean z-score | z-score, replicate A | z-score, replicate B | z-score, replicate C | activity call
HTR1E | -1.05 | -0.84 | -1.13 | -1.19 | inactive
EDN2 | 0.53 | 0.79 | 0.46 | 0.33 | inactive
CZIB | 0.66 | 1.16 | 0.84 | -0.02 | inactive
FOXRED2 | 0.51 | 0.35 | 0.32 | 0.85 | inactive
EPHA2 | 0.42 | 0.95 | 0.4 | -0.08 | inactive
HSF2 | -0.45 | -0.51 | -0.37 | -0.48 | inactive
ZNF775 | 0.07 | 0.2 | 0.02 | -0.01 | inactive
LMAN2L | 0.69 | 0.92 | 1.17 | -0.01 | inactive
CCAR2 | -1.42 | -1.6 | -1.43 | -1.22 | inactive
PABPN1L | -0.23 | -0.36 | -0.28 | -0.06 | inactive
HERPUD1 | -0.27 | -0.26 | -0.42 | -0.14 | inactive
CRYBA1 | 0.27 | 0.24 | 0.36 | 0.22 | inactive
PTN | 0.36 | 0.37 | 0.37 | 0.35 | inactive
IRAG2 | 0.43 | 0.57 | 0.28 | 0.43 | inactive
DUS3L | 0.07 | -0.12 | 0 | 0.31 | inactive
ALDH9A1 | -0.13 | -0.39 | -0.03 | 0.04 | inactive
